Anti-infective test results gathered from many reports (values: NIAID ChemDB through PubChem).

Shared fields: growth or infection tests; agent: Human cytomegalovirus; method: plaque count; read-out: EC50

ECn is the concentration giving n% inhibition of infection, replication or growth. Lines come from different laboratories, so protocols vary. An empty or dashed field is not shown. Two numbers with a dash give a range or band.

| structure | strain | cell line | result |
|---|---|---|---|
| c1ccc(-c2ccccn2)nc1 | AD169 | HEL | 10.31 µg/mL |
| Nc1ncnc2c1ccn2[C@H]1C[C@H](O)[C@@H](CO)O1 | - | HFF | 130 µM |
| Nc1nc2c(ncn2[C@H]2C=C[C@@H](CO)CC2)c(=O)[nH]1 | AD169 | HEL | 1.05 µg/mL |
| O=C(NCCc1c[nH]c2ccccc12)C1=Cc2ccncc2CC1 | C8805-37 | MRC-5 | 0.3 µM |
| Nc1ccn(C[C@@H](CO)OCP(=O)(O)O)c(=O)n1 | AD169 | HEL | 0.2 µg/mL |
| O=C1c2cccc(O)c2C(=O)c2c(O)cc(CO)cc21 | AD169 | MRC-5 | >37 µM |
| NC(=O)c1cn([C@@H]2O[C@H](CO)[C@@H](O)[C@@H]2O)c2ncnc(N)c12 | - | HFF | 0.8 µM |
| COc1cc(O)c2c(c1)C(=O)c1cc(C)cc(O)c1C2=O | AD169 | MRC-5 | >35.2 µM |
| Nc1nc2c(ncn2C=C2CC2CO)c(=O)[nH]1 | - | - | 1–10 µM |
| Nc1ncnc2c1ncn2[C@@H]1C=C[C@@H](O)[C@H]1O | DAVIS (20 PFU) | HEL | 1.7 µg/mL |
| Cc1cc(C)c2c(c1)COP(=O)(OC[C@H]1O[C@@H](n3cc(/C=C/Br)c(=O)[nH]c3=O)C[C@@H]1O)O2 | AD169 | HELF | >128 µg/mL |
| NC(=O)c1cn([C@H]2CC[C@@H](CO)O2)c2ncnc(N)c12 | - | HFF | 133 µM |
| O=C(O)C[C@H](NCCN[C@@H](CC(=O)O)C(=O)O)C(=O)O | LY9990 (ganciclovir-resistant) | HEL | 7.6 µg/mL |
| O=c1cc(-c2ccc(O)c(O)c2)oc2cc(O)cc(O)c12 | A6245 | HEF | 12.5 µM |
| Cc1cc(=O)c2c(O)c3c(O)cc(O)c4c5c(O)cc(O)c6c(O)c7c(=O)cc(C)cc7c(c65)c(c2c1)c34 | AD169 | MRC-5 | 5.7 µM |
| Nc1ncnc2c1ncn2[C@@H]1C[C@H](CO)[C@@H](O)[C@H]1O | AD-169 (20 PFU) | HEL | >100 µg/mL |
| Cc1cc(=O)c2c(O)c3c(O)cc(O)c4c5c(O)cc(O)c6c(O)c7c(=O)cc(C)c8c1c2c(c34)c(c65)c78 | AD169 | MRC-5 | 1.8 µM |
| CC(C)COC(=O)C(O)Cn1cnc2c(N)ncnc21 | DAVIS (20 PFU) | HEL | 1.5 µg/mL |
| Nc1ncnc2c1c(Cl)cn2[C@@H]1O[C@H](CO)[C@@H](O)[C@H]1O | - | HFF | 4 µM |
| Nc1ncnc2c1ncn2C[C@H](O)CO | DAVIS (20 PFU) | HEL | >100 µg/mL |
| CC(C)(C)C(=O)OCOP(=O)(COCCn1cnc2c(N)ncnc21)OCOC(=O)C(C)(C)C | AD169 | MRC-5 | 65 µM |
| Nc1nc2c(ncn2[C@@H]2C=C[C@H](CO)CC2)c(=O)[nH]1 | U 9070 | HEL | 0.13 µg/mL |
| N#Cc1cn([C@H]2C[C@H](O)[C@@H](CO)O2)c2ncnc(N)c12 | - | HFF | 0.4 µM |
| Nc1nccc2c1ncn2[C@@H]1C=C(CO)[C@@H](O)[C@H]1O | DAVIS (20 PFU) | HEL | 0.05 µg/mL |
| C[C@H](N)C(=O)O[C@H]1C[C@H](n2cc(/C=C/Br)c(=O)[nH]c2=O)O[C@@H]1COP1(=O)OCc2ccccc2O1 | AD169 | HELF | >128 µg/mL |
| COC(=O)[C@]1(O)C[C@@H]2O[C@@]1(C)n1c3ccccc3c3c4c(c5c6ccccc6n2c5c31)C(=O)NC4 | AD169 | HEF | 0.04 µM |
| O=c1[nH]c(=O)n([C@H]2C[C@H](O)[C@@H](COP3(=O)OCc4cc(Cl)ccc4O3)O2)cc1/C=C/Br | AD169 | HELF | >128 µg/mL |
| N#Cc1cn(COCCO)c2ncnc(N)c12 | - | HFF | >100 µM |
| Cc1cccc2c1OP(=O)(OC[C@H]1O[C@@H](n3cc(/C=C/Br)c(=O)[nH]c3=O)C[C@@H]1O)OC2 | AD169 | HELF | >128 µg/mL |
| Cn1c2ccccc2c2c3c(c4c5ccccc5n(CCC#N)c4c21)CNC3=O | A6245 | HEF | 0.05 µM |

Repeating the final 2 entries:

structure	strain	cell line	result
Cc1cccc2c1OP(=O)(OC[C@H]1O[C@@H](n3cc(/C=C/Br)c(=O)[nH]c3=O)C[C@@H]1O)OC2	AD169	HELF	>128 µg/mL
Cn1c2ccccc2c2c3c(c4c5ccccc5n(CCC#N)c4c21)CNC3=O	A6245	HEF	0.05 µM